Pooled drug test results. Numbers come from NIAID ChemDB, via PubChem.

Shared fields: whole-cell or culture tests; species: Bovine viral diarrhea virus

ECn: concentration that inhibits the pathogen or its effect by n%. Blank or dashed fields: not listed here. Neighbouring rows are from separate reports.

structure | strain or isolate | read by | cells | endpoint | result
C[C@@H]1CC[C@H]2[C@@H](C)C(=O)O[C@@H]3OC4(C)CC[C@@H]1[C@]32OO4 | PE515 | MTS | MDBK | EC50 | 0.4 µg/mL
NC(=O)c1ncn([C@@H]2O[C@H](CO)[C@@H](O)[C@H]2O)n1 |  | cytopathic effect | VERO | EC50 | 5 µg/mL
Nc1ccn([C@@H]2O[C@H](CO)[C@@H](O)[C@H]2F)c(=O)n1 |  | replicon | Huh7 | EC90 | >100 µM
NC(=O)c1ncn([C@@H]2O[C@H](COP(=O)(O)OP(=O)(O)OP(=O)(O)O)[C@@H](O)[C@H]2O)n1 |  |  |  | EC50 | 50 µM
CCCC(=O)O[C@H]1CN2CC[C@H](O)[C@@H]2[C@@H](O)[C@@H]1O |  | plaque count | MDBK | EC50 | 15.95 µM
C[C@@H]1CC[C@H]2[C@@H](C)C(=O)O[C@@H]3OC4(C)CC[C@@H]1[C@]32OO4 | C24V | cytopathic effect | EBTR | EC50 | <10 µM
O[C@H]1[C@H](O)[C@@H](O)CN2CC[C@H](O)[C@H]12 |  | cytopathic effect | MDBK | EC50 | 366.7 µM
CCC(C)CCC[C@@H](C)CCN1C[C@H](O)[C@@H](O)[C@H](O)[C@H]1CO |  | plaque count | MDBK | EC50 | 8 µM
CCCCCCCCCN1C[C@H](O)[C@@H](O)[C@H](O)[C@H]1CO |  | cytopathic effect | MDBK | EC50 | 60 µM
COc1cc(O)c(CC=C(C)C)c2c1C(=O)CC(c1ccc(O)cc1)O2 | NADL | cytopathic effect | MDBK | EC50 | >2.5 µg/mL
CCCOCCCCCCN1C[C@H](O)[C@@H](O)[C@H](O)[C@H]1CO |  | plaque count | MDBK | EC50 | 30 µM
C[C@H]1[C@@H](OC(=O)CCC(=O)O)O[C@@H]2O[C@@]3(C)CC[C@H]4[C@H](C)CC[C@@H]1[C@@]24OO3 | PE515 | MTS | MDBK | EC50 | 0.07 µg/mL
NC(=O)c1ncn([C@@H]2O[C@H](CO)[C@@H](O)[C@H]2O)c1O |  | cytopathic effect | MDBK | EC50 | 5.3 µM
NC12CC3CC(CC(C3)C1)C2 |  | cytopathic effect | MDBK | EC50 | 125 µM
OC[C@@H]1[C@@H](O)[C@H](O)[C@@H](O)CN1CCCCCCCCCCN1C[C@H](O)[C@@H](O)[C@H](O)[C@H]1CO |  | plaque count | MDBK | EC50 | 25 µM

For reference, 2 entries again:

{"structure": "C[C@@H]1CC[C@H]2[C@@H](C)C(=O)O[C@@H]3OC4(C)CC[C@@H]1[C@]32OO4", "strain or isolate": "C24V", "read by": "cytopathic effect", "cells": "EBTR", "endpoint": "EC50", "result": "<10 µM"}
{"structure": "Nc1ccn([C@@H]2O[C@H](CO)[C@@H](O)[C@H]2F)c(=O)n1", "read by": "replicon", "cells": "Huh7", "endpoint": "EC90", "result": ">100 µM"}